# Values quoted from earlier work as cited in PMC6889097 (Virologica Sinica, 2019).
# Test system: lethal influenza virus infection
# Settings: mouse, cited from earlier work
compound,measurement,setting,value
"CC(C)Cc1ccc(C(C)C(=O)O)cc1 (centres unmarked) [Ibuprofen, ibuprofen]",reported effect on survival rate of influenza-infected mice,in vivo,no improvement on the survival rate
same,In vivo: the protective effect of mice from lethal influenza infection,,±
